The source of these data is paper PMC8430508 (International Journal of Molecular Sciences, 2021).

This assay concerns the target T1, cytosolic domain of human TOM70 (111-608) with E477A (human, UniProt O94826 111-608, E477A).
T1 sequence: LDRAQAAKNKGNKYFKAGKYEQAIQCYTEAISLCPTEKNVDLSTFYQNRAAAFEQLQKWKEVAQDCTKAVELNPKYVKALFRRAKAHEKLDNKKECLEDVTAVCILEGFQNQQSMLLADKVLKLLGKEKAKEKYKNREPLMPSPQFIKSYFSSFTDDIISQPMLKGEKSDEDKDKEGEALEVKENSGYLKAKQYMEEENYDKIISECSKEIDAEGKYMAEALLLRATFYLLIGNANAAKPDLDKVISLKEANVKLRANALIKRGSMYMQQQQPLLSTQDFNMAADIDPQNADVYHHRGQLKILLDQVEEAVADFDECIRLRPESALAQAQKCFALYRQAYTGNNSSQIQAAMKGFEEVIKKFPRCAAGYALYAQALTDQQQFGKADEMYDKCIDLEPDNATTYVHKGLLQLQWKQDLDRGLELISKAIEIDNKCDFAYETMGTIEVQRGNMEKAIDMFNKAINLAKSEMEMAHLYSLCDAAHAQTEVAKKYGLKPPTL
Kind of assay: […]; 7% ([…]; 40 min, 30 °C; […], pH 7.2; […]. Particulars: one partner purified.

B1: SARS-CoV-2 Orf9b wild type, radiolabeled, synthesized in reticulocyte lysate (natural protein)
chain: not shown
modifications: [35S]-methionine label
For the molecule B1, the “percent reduction of binding against TOM70WT” value came out at 73%.
